These results are taken from patent US20110015130, “Polypeptides Selective for alphavbeta3 Integrin Conjugated With a Variant Of Human Serum Albumin (HSA) And Pharmaceutical Uses Thereof” (published 2011).

Assay [1] deals with integrin α5β1 (human erythroleukemia K562 cells), human, P08648 42-1049; P05556 21-798. Description: cell adhesion inhibition, K562 cells on coated matrix protein.
In assay [2] the target is integrin αvβ3 on Chinese hamster ovary cells (CHO-αvβ3), not stated, P06756 31-1048; P05106 27-788. Description: cell adhesion inhibition, CHO-αvβ3 cells on coated matrix protein.
Assay [3] has as its target integrin αllbβ3 on Chinese hamster ovary cells (CHO-αllbβ3), not stated, P08514 32-1039; P05106 27-788. Description: cell adhesion inhibition, CHO-αllbβ3 cells on coated matrix protein.
For assay [4], the target named is platelet glycoprotein αllbβ3 (human platelets in platelet-rich plasma), human, P08514 32-1039; P05106 27-788. Nature of the assay: cell-based or functional assay.

One may read the IC50 as the midpoint of a concentration-inhibition curve. Read a high IC50 as lower potency. For the substance “ARLDDL (rhodostomin variant having an RGD motif variant 48ARLDDL53)”, the IC50 in assay [1] was determined as 6.42 µM; in assay [2], 0.048 µM; in assay [3] it was 23.2 µM.

For the substance HSA(C34S)-ARLDDL fusion protein, the Platelet aggregation IC50 (ADP-induced, human platelet-rich plasma) in assay [4] turned out to be 11 µM. In addition, the IC50 in assay [3] turned out to be 11.4 µM.

Consider “HSA-ARLDDL (human albumin-conjugated product of ARLDDL protein)”, for which the Platelet aggregation IC50 (ADP-induced, human platelet-rich plasma) in assay [4] was 11.2 µM. The IC50 in assay [3] was 12.3 µM.

With pegylated-ARLDDL, the Platelet aggregation IC50 (ADP-induced, human platelet-rich plasma) in assay [4] was 13.2 µM. Besides, the IC50 in assay [2] worked out at 0.115 µM; in assay [3], 15.7 µM.
